Laboratory results reported in PMC6894885, “NCOA2 promotes lytic reactivation of Kaposi’s sarcoma-associated herpesvirus by enhancing the expression of the master switch protein RTA” (PLoS Pathogens, 2019).

Target: T1, GST-fused NCOA2 (human, UniProt Q15596 1-1464)
T1 construct: also called GST-NCOA2; GST-tagged NCOA2 fusion protein
Assay: pull-down

B1: His-tagged RTA (natural protein)
chain: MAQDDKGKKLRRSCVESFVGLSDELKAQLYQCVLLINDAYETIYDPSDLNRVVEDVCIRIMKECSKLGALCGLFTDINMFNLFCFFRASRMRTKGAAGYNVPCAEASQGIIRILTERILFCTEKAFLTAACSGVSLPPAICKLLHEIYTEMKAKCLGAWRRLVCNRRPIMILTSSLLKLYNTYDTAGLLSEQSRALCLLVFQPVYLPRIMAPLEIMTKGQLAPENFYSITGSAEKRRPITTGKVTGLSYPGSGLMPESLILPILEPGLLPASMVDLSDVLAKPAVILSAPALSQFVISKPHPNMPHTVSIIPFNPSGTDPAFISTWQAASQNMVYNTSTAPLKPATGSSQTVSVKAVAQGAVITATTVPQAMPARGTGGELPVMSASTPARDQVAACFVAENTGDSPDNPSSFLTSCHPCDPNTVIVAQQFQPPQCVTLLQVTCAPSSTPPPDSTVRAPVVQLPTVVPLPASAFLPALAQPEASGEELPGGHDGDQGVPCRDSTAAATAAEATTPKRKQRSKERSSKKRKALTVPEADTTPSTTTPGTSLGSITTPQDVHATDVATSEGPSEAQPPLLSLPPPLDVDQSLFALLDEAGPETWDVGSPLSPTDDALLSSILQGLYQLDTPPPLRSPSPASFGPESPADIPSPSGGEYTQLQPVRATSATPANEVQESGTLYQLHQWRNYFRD
Q: Does B1 bind?
A: binds
